Results of unrelated studies side by side (data: NIAID ChemDB).

All rows: growth or infection tests; agent: HIV-1; cells: MT-4; measure: EC50

Blank or dashed fields: not listed here. Conditions beyond the fields shown may differ between rows. ECn is the concentration giving n% inhibition of infection, replication or growth.

smiles,strain or isolate,changes,method,value
COC(=O)/C=C1\S/C(=N/N=C/c2ccccc2OCc2ccccc2)NC1=O,IIIB,,cytopathic effect / MTT,>14.35 µM
O=C(NCCCCN1CCCC2=C[C@@H]3C[C@@H](CN4CCCC[C@H]34)[C@@H]21)c1c(F)cc(Br)cc1F,NL4-3,,luciferase,>20 µM
COC(=O)/C=C1\S/C(=N/N=C/c2ccccc2Br)NC1=O,IIIB,,cytopathic effect / MTT,>13.45 µM
CCOC(=O)c1cccn1S(=O)(=O)c1cc(Cl)ccc1NC(=O)C(C)(C)C,IIIB,,cytopathic effect / XTT,>42 µM
CC1=C[C@@H]2[C@@H]3C(=O)N(NC(=S)Nc4ccccc4)C(=O)[C@@H]3[C@H]1C[C@@H]2C(C)C,IIIB,,cytopathic effect / MTT,>48 µM
O=C(Cc1ccc2c(c1)OC(F)(F)O2)NCCCCN1CCCC2=C[C@@H]3C[C@@H](CN4CCCC[C@H]34)[C@@H]21,NL4-3,,luciferase,0.62 µM
Nc1ncnc2c1ncn2[C@@H]1O[C@H](CO)[C@H]1N,,,antigen,<3 µg/mL
O=C(NCCCCCCN1CCCC2=C[C@@H]3C[C@@H](CN4CCCC[C@H]34)[C@@H]21)c1c(F)cccc1F,NL4-3,,luciferase,>20 µM
CNc1ccc(C#N)cc1Nc1c2ccccc2nc(-c2cccnc2)[n+]1C,NL4-3,,ELISA,>10 µM
O=C(NCCCCCCN1CCCC2=C[C@@H]3C[C@@H](CN4CCCC[C@H]34)[C@@H]21)c1c(F)cc(Cl)cc1F,NL4-3,,luciferase,>20 µM
CC(C)CN(C[C@@H](O)[C@H](Cc1ccccc1)NC(=O)O[C@H]1CO[C@H]2OCC[C@H]21)S(=O)(=O)c1ccc2c(c1)OCO2,NL4-3 (ATV1),L23I/K43I/M46I/I50L/G51A/A71V,p24,0.0015 µM
Nc1ncnc2c1ncn2[C@H]1C[C@H](S)[C@@H](CO)O1,,,ELISA,>100 µM
CCNC(=O)OCCOCn1c(Sc2cccc(C)c2)c(C)c(=O)[nH]c1=O,,,,0.96 µM
[N-]=[N+]=N[C@H]1C[C@@H](CO)S[C@H]1n1cnc2c(N)ncnc21,,,,>100 µM
Cc1cc(/C=C/C#N)cc(C)c1Oc1nc(NC2CCN(Cc3ccc(F)cc3)CC2)nc2ccsc12,RES056,,MTT,0.125 µM
C=C(C)[C@@H]1CC[C@]2(C(=O)NCCCCCCCC(=O)N[C@@H](CC(C)C)[C@@H](O)CC(=O)O)CC[C@]3(C)[C@H](CC[C@@H]4[C@@]5(C)CC[C@H](O)C(C)(C)[C@@H]5CC[C@]43C)[C@@H]12,LAI,,cytopathic effect / MTT,0.04 µM
S=C(NCCc1ccccc1)Nc1nccs1,,,,0.35 µg/mL
O=C(/C=C(\O)c1cccc(O)c1)c1nc2ccccc2[nH]1,IIIB,,cytopathic effect,7.1 µM
COc1cccc(N2C(=O)CSC2c2c(F)cccc2F)c1,IIIB,,cytopathic effect,11.79 µM
Cc1c(Sc2ccccc2)n(COCCN=[N+]=[N-])c(=O)[nH]c1=O,,,,<5.7 µM
Nc1ccn([C@H]2C[C@H]3OC[C@@H](O)[C@H]3O2)c(=O)n1,,,,>100 µM
CCCCC(=O)OC[C@H]1O[C@@H](n2cnc3c(N)ncnc32)[C@@H]1CO,,,antigen,<3 µg/mL
CCCCC(=O)Nc1ccc(Cl)cc1S(=O)(=O)n1cccc1C(=O)OCC,IIIB,,cytopathic effect / XTT,1.2 µM
CN1CC(=O)C(=O)C=C1Cn1cnc([N+](=O)[O-])c1Nc1ccc(Br)cc1,IIIB,,MTT,>6.8 µM
Cc1cc(/C=C/C#N)cc(C)c1Oc1nc(NC2CCN(Cc3ccc([N+](=O)[O-])cc3)CC2)nc2ccsc12,IIIB,NNRTI-resistant (RT L100I),MTT,0.0263 µM
Cc1cc(C)cc(S(=O)(=O)c2c(C(N)=O)[nH]c3ccc(Cl)cc23)c1,,,p24,<0.005 µM
CCOCn1c(Sc2cc(C)cc(C)c2)c(CC)c(=O)[nH]c1=O,,,,0.005 µM
CCOC(=O)c1cccn1S(=O)(=O)c1cc(Cl)ccc1NC(C)=O,IIIB,,cytopathic effect / XTT,1 µM
CCOC(=O)c1cccc(Nc2nc(-c3cccnc3)nc3ccccc23)c1,NL4-3,,ELISA,2 µM
Cc1ccc(Sc2c([N+](=O)[O-])ncn2CC2=CC(=O)C(=O)CN2C)cc1,IIIB,,MTT,>29.8 µM
COC(=O)/C=C1\S/C(=N/N=C/c2cc(OC)c(O)c(OC)c2)NC1=O,IIIB,,cytopathic effect / MTT,>14.5 µM
COc1cccc(S(=O)(=O)n2c(=O)[nH]c3ccc(Cl)cc32)c1,IIIB,,,0.035 µM
CCCc1c(Cc2ccccc2)n(COC/C(C)=C/c2ccccc2)c(=O)[nH]c1=O,NNRTI-resistant (RT K103N Y181C) A17,RT-K103N Y181C,cytopathic effect / MTT,>100 µM
Cc1cn([C@H]2C[C@H](N=[N+]=[N-])[C@@H](CO)O2)c(=O)[nH]c1=O,IIIB X4,,cytopathic effect / MTT,0.013 µM
Cc1cn([C@H]2S[C@@H](CO)C[C@@H]2N=[N+]=[N-])c(=O)[nH]c1=O,,,,>100 µM
CCOC(=O)c1cccn1S(=O)(=O)c1ccc(NC=O)cc1,IIIB,,cytopathic effect / XTT,>114 µM
COC(=O)/C=C1\S/C(=N/N=C/c2c(F)cccc2Cl)NC1=O,IIIB,,cytopathic effect / MTT,>52.7 µM
COc1ccc(NC(=O)NN2C(=O)[C@@H]3[C@H](C2=O)[C@]2(C)C=C[C@@]3(C(C)C)CC2)cc1,IIIB,,cytopathic effect / MTT,>57 µM
CCc1c(Cc2cc(Cl)cc(Cl)c2)n(COC2CCc3ccccc32)c(=O)[nH]c1=O,NNRTI-resistant (RT Y181C) N119,RT-Y181C,cytopathic effect / MTT,0.3 µM
Cc1cc(/C=C/C#N)cc(C)c1Oc1nc(NC2CCN(Cc3ccc(Br)cc3)CC2)nc2ccsc12,IIIB,NNRTI-resistant (RT E138K),MTT,0.154 µM
CCCc1c(Cc2cc(C)cc(C)c2)n(COCC2CC=CCC2)c(=O)[nH]c1=O,NNRTI-resistant (RT Y181C) N119,RT-Y181C,cytopathic effect / MTT,>100 µM
Cc1c(Sc2ccccc2)n(COCCOC(=O)c2ccccc2)c(=O)[nH]c1=O,,,,7.6 µM
Nc1ncnc2c1ncn2[C@@H]1O[C@H](CO)[C@H]1F,,,antigen,~10 µg/mL
[N-]=[N+]=N[C@H]1C[C@@H](CO)O[C@H]1n1cnc2c(NC3CCCC3)ncnc21,IIIB,,,>125 µg/mL
Cc1c(Sc2cc(Cl)cc(Cl)c2)n(COCCO)c(=O)[nH]c1=O,,,,1.8 µM
CC1=C[C@@H]2[C@@H]3C(=O)N(N)C(=O)[C@@H]3[C@H]1C[C@@H]2C(C)C,IIIB,,cytopathic effect / MTT,>100 µM
Fc1cc(Nc2nc(-c3cncc(Br)c3)nc3ccccc23)cc(F)c1F,NL4-3,,ELISA,3 µM
CN1CC(=O)C(=O)C=C1Cn1cnc([N+](=O)[O-])c1Sc1ccc(Cl)cc1,IIIB,,MTT,>3.6 µM
CC(C)(C)NC(=O)[C@H]1N(C(=O)[C@@H](O)[C@H](Cc2ccccc2)NC(=O)CC(C)(C)C(=O)O)CSC1(C)C,,,,52 µM
[N-]=[N+]=N[C@H]1C[C@H](CO)S[C@@H]1n1cnc2c(N)ncnc21,,,,>100 µM
O=C1CSC(c2c(F)cccc2Cl)N1c1cccc(Cl)c1,IIIB,,cytopathic effect,0.61 µM
OC[C@H]1OC(O)C[C@@H](O)[C@@H]1O,,,syncytia,<10000 µM
[N-]=[N+]=N[C@@H]1C[C@@H](CO)S[C@@H]1n1cnc2c(Cl)ncnc21,,,,>100 µM
CCOC(=O)c1cccn1S(=O)(=O)c1cccc(N)c1,IIIB,,cytopathic effect / XTT,>200 µM
O=C1CSC(c2c(F)cccc2Cl)N1c1cccc([N+](=O)[O-])c1,IIIB,,cytopathic effect,1.33 µM
CCOC(=O)c1cccn1S(=O)(=O)c1cccc(NC=O)c1,IIIB,,cytopathic effect / XTT,200 µM
CCn1c(Sc2ccccc2)c(C)c(=O)[nH]c1=O,,,,4.3 µM
Cc1cc(/C=C/C#N)cc(C)c1Oc1nc(NC2CCN(Cc3ccc(Cl)cc3)CC2)nc2ccsc12,IIIB,NNRTI-resistant (RT Y188L),MTT,0.177 µM
O=C(NCCCCCCN1CCC[C@@H]2C[C@@H]3C[C@@H](CN4CCCC[C@H]34)[C@@H]21)c1ccc(OC(F)(F)F)cc1,NL4-3,,luciferase,>20 µM
Cc1cc(C)cc(N2C(=O)CSC2c2c(F)cccc2F)c1,IIIB,,cytopathic effect,0.24 µM
CCc1c(Sc2ccccc2)n(COCc2ccccc2)c(=O)[nH]c1=O,,,,0.0025 µM
CCOC(=O)c1ccc(CN2CCC(Nc3nc(Oc4c(C)cc(C#N)cc4C)c4ccsc4n3)CC2)cc1,IIIB,NNRTI-resistant (RT F227L V106A),MTT,3.68 µM
O=C1CSC(c2c(F)cccc2F)N1c1cc(F)cc(F)c1,IIIB,,cytopathic effect,0.54 µM
CN[C@@H]1[C@H](O[C@@H]2OC[C@@H](O)[C@H](O)[C@H]2O)[C@@H](O)[C@H](O[C@H]2c3cc(C)c(C(=O)N[C@H](C)C(=O)O)c(O)c3-c3c(cc4c(c3O)C(=O)c3cc(OC)cc(O)c3C4=O)[C@@H]2O)O[C@@H]1C,IIIB,,p24 / ELISA,3.1 µM
Cc1cc(C#N)cc(C)c1Oc1nc(NC2CCN(Cc3ccc(S(C)(=O)=O)cc3)CC2)nc2sccc12,RES056,,MTT,0.0423 µM
CCOC(=O)c1ccc2n1S(=O)(=O)c1cc(Cl)ccc1N2C(N)=O,IIIB,,cytopathic effect / XTT,34 µM
CN1CC(=O)C(=O)C=C1Cn1cnc([N+](=O)[O-])c1Sc1ccccc1,IIIB,,MTT,>23.6 µM
O=C1CSC(c2c(Cl)cccc2Cl)N1c1ccccc1,IIIB,,cytopathic effect,2.3 µM
CNc1ncnc2c1ncn2[C@H]1S[C@@H](CO)C[C@@H]1N=[N+]=[N-],,,,>100 µM
CCc1c(Sc2ccccc2)n(COC2CCCCC2)c(=O)[nH]c1=O,,,,3.8 µM
O=C1CSC(c2c(F)cccc2F)N1c1cccc([N+](=O)[O-])c1,IIIB,,cytopathic effect,5.5 µM
C/C(=N/O)c1ccc(Nc2nc(-c3ccncc3)nc3ccccc23)cc1,NL4-3,,ELISA,<5 µM
CCc1c(Cc2cc(C)cc(C)c2)n(COC2C=CCCC2)c(=O)[nH]c1=O,NNRTI-resistant (RT K103N Y181C) A17,RT-K103N Y181C,cytopathic effect / MTT,>100 µM
O=C(NCCCCCCN1CCCC2=C[C@@H]3C[C@@H](CN4CCCC[C@H]34)[C@@H]21)c1c(F)cc(Br)cc1F,NL4-3,,luciferase,>20 µM
Cc1cn(CCCO[C@@H]2O[C@H](CO)[C@@H](N=[N+]=[N-])[C@H]2O)c(=O)[nH]c1=O,IIIB,,cytopathic effect,>100 µg/mL
CN(C)c1nc(-c2cccnc2)nc2ccc(OS(=O)(=O)O)cc12,NL4-3,,ELISA,>10 µM
Cc1cc(C)cc(S(=O)(=O)c2c(C(=O)/C=C/C(N)=O)[nH]c3ccc(Cl)cc23)c1,IIIB,,cytopathic effect / MTT,0.06 µM
[N-]=[N+]=NC[C@H]1[C@H](n2cnc3c(N)ncnc32)O[C@@H]1CO,,,antigen,<3 µg/mL
CCc1c(Sc2ccccc2)n(COCc2ccc(C)cc2)c(=S)[nH]c1=O,,,,0.012 µM
CCc1c(Cc2cc(C)cc(C)c2)n(COCC2CC=CCC2)c(=O)[nH]c1=O,NNRTI-resistant (RT K103N Y181C) A17,RT-K103N Y181C,cytopathic effect / MTT,>100 µM
Cc1cc(C)cc(S(=O)(=O)c2c(C(=O)/C=C/C(N)=O)[nH]c3ccc(Cl)cc23)c1,IIIB,,cytopathic effect / MTT / p24,0.06 µM
CCOC(=O)c1cccn1S(=O)(=O)c1cc(Cl)ccc1NC(=O)c1ccc(C)cc1,IIIB,,cytopathic effect / XTT,>200 µM

8 of the rows above, restated:

{"smiles": "[N-]=[N+]=NC[C@H]1[C@H](n2cnc3c(N)ncnc32)O[C@@H]1CO", "method": "antigen", "value": "<3 µg/mL"}
{"smiles": "Cc1cc(C)cc(S(=O)(=O)c2c(C(=O)/C=C/C(N)=O)[nH]c3ccc(Cl)cc23)c1", "strain or isolate": "IIIB", "method": "cytopathic effect / MTT / p24", "value": "0.06 µM"}
{"smiles": "COC(=O)/C=C1\\S/C(=N/N=C/c2ccccc2OCc2ccccc2)NC1=O", "strain or isolate": "IIIB", "method": "cytopathic effect / MTT", "value": ">14.35 µM"}
{"smiles": "CCCc1c(Cc2ccccc2)n(COC/C(C)=C/c2ccccc2)c(=O)[nH]c1=O", "strain or isolate": "NNRTI-resistant (RT K103N Y181C) A17", "changes": "RT-K103N Y181C", "method": "cytopathic effect / MTT", "value": ">100 µM"}
{"smiles": "CCOC(=O)c1cccn1S(=O)(=O)c1cccc(N)c1", "strain or isolate": "IIIB", "method": "cytopathic effect / XTT", "value": ">200 µM"}
{"smiles": "CCOC(=O)c1ccc(CN2CCC(Nc3nc(Oc4c(C)cc(C#N)cc4C)c4ccsc4n3)CC2)cc1", "strain or isolate": "IIIB", "changes": "NNRTI-resistant (RT F227L V106A)", "method": "MTT", "value": "3.68 µM"}
{"smiles": "CNc1ncnc2c1ncn2[C@H]1S[C@@H](CO)C[C@@H]1N=[N+]=[N-]", "value": ">100 µM"}
{"smiles": "Cc1cc(C)cc(S(=O)(=O)c2c(C(N)=O)[nH]c3ccc(Cl)cc23)c1", "method": "p24", "value": "<0.005 µM"}